Results of unrelated studies side by side (data: NIAID ChemDB).

Lines come from different laboratories, so protocols vary. An empty or dashed field is not shown. Inhibition is in % at the dose shown (toxicity tests: loss of growth or viability). ICn is the concentration giving n% inhibition. ECn is the concentration giving n% inhibition of infection, replication or growth.

| SMILES | test | species | strain or isolate | cells | protein | endpoint | tested at | result |
|---|---|---|---|---|---|---|---|---|
| Nc1nccc2c1ncn2[C@@H]1C=C(CO)[C@@H](O)[C@H]1O | culture | Variola virus | Isolate Brazil Garcia | LLC-MK2 | - | EC50 | - | 0.45 µg/mL |
| O=C(N[C@H](C(=O)O)c1c[nH]c2ccc(O)cc12)c1ccc2c(c1)nc(/C=C/c1ccc([N+](=O)[O-])cc1)n2C1CCCCC1 | target | Poliovirus | - | - | RNA-dependent RNA polymerase | IC50 | - | >25 µM |
| Nc1ccn(C[C@@H](CO)OCP(=O)(O)O)c(=O)n1 | culture | Variola virus | Isolate Bangladesh | VERO | - | EC50 | - | 9.5 µg/mL |
| CCCCCCCCCCCCC/C=C/[C@@H](O)[C@H](CO[C@@H]1O[C@H](CO)[C@H](O)[C@H](OS(=O)(=O)O)[C@H]1O)NC(=O)CCCCCCCCCCCCCCCCCCCCCCC | target | Influenza A virus | H6N4 A/mallard/Alberta/58/89 | - | Sialidase | inhibition | 200 µM | 39.9% |
| Nc1ccn(C[C@H]2COP(=O)(O)CO2)c(=O)n1 | culture | Variola virus | Isolate Rumbec | VERO | - | EC50 | - | 16 µg/mL |
| O=C(NC1CCC(NC(=O)[C@@H]2CCCC[C@@H]2C(=O)O)CC1)c1ccc2c(c1)nc(-c1ccoc1)n2C1CCCCC1 | target | Poliovirus | - | - | RNA-dependent RNA polymerase | IC50 | - | >25 µM |
| Clc1ccc(C2=Cc3ccccc3OC2)cc1 | culture | Poliovirus | TYPE 2 | HEP-2 | - | EC50 | - | >10 µM |
| COc1ccc(C[C@H](NC(=O)c2ccc3c(c2)nc(-c2ccoc2)n3C2CCCCC2)C(=O)O)cc1/C=C/C(=O)O | target | Poliovirus | - | - | RNA-dependent RNA polymerase | IC50 | - | >25 µM |
| O=c1[nH]cnc2c1ncn2[C@@H]1C=C(CO)[C@@H](O)[C@H]1O | culture | Variola virus | 7124 | MK2 | - | EC50 | - | >100 µg/mL |
| Clc1ccc(C2COc3ccc(Cl)cc3C2)cc1 | culture | Poliovirus | IA (TYPE 2) | HEP-2 | - | EC50 | - | >10 µM |
| O=C(O)c1ccc(C(=O)NNC(=O)c2ccc3c(c2)nc(-c2ccoc2)n3C2CCCCC2)cc1 | target | Poliovirus | - | - | RNA-dependent RNA polymerase | IC50 | - | >25 µM |
| Brc1ccc(C2=Cc3ccccc3OC2)cc1 | culture | Poliovirus | SABIN (TYPE 2) | HEP-2 | - | inhibition | 10 µM | 23% |
| COc1ccc(C(NC(=O)c2ccc3c(c2)nc(-c2ccc(O)cc2)n3C2CCCCC2)C(=O)O)cc1OC | target | Poliovirus | - | - | RNA-dependent RNA polymerase | IC50 | - | >25 µM |
| Clc1ccc(C2COc3ccccc3C2)cc1 | culture | Poliovirus | IA (TYPE 2) | HEP-2 | - | inhibition | 10 µM | 20% |
| CCCCCCCCCCCCCCCCCC(=O)OC[C@@H](COP(=O)(O)OCCNCCO[C@@]1(C(=O)O)O[C@@H]([C@H](O)[C@H](O)CO)[C@H](NC(C)=O)[C@@H](O)[C@H]1F)OC(=O)CCCCCCCCCCCCCCCCC | target | Influenza A virus | H12N5 A/DUCK/862/5/80 | - | Sialidase | IC50 | - | 100 µM |
| C1=C(c2ccccc2)COc2ccccc21 | culture | Poliovirus | TYPE 2 | HEP-2 | - | EC50 | - | <10 µM |
| Nc1ncnc2c1ncn2[C@@H]1C=C(CO)[C@@H](O)[C@H]1O | culture | Variola virus | 7124 | MK2 | - | EC50 | - | 0.1 µg/mL |
| CCCCCCCCCCCCCCCCCC(=O)OC[C@@H](COP(=O)(O)OCCNCCO[C@@]1(C(=O)O)O[C@@H]([C@H](O)[C@H](O)CO)[C@H](NC(C)=O)[C@@H](O)[C@H]1F)OC(=O)CCCCCCCCCCCCCCCCC | target | Influenza A virus | H10N1 A/DUCK/HK/33/76 | - | Sialidase | IC50 | - | 250 µM |
| O=C(N[C@@H](CO)C(=O)O)c1ccc2c(c1)nc(-c1ccccn1)n2C1CCCCC1 | target | Poliovirus | - | - | RNA-dependent RNA polymerase | IC50 | - | >25 µM |

Again, the opening 3 rows:

SMILES	test	species	strain or isolate	cells	protein	endpoint	tested at	result
Nc1nccc2c1ncn2[C@@H]1C=C(CO)[C@@H](O)[C@H]1O	culture	Variola virus	Isolate Brazil Garcia	LLC-MK2	-	EC50	-	0.45 µg/mL
O=C(N[C@H](C(=O)O)c1c[nH]c2ccc(O)cc12)c1ccc2c(c1)nc(/C=C/c1ccc([N+](=O)[O-])cc1)n2C1CCCCC1	target	Poliovirus	-	-	RNA-dependent RNA polymerase	IC50	-	>25 µM
Nc1ccn(C[C@@H](CO)OCP(=O)(O)O)c(=O)n1	culture	Variola virus	Isolate Bangladesh	VERO	-	EC50	-	9.5 µg/mL